BindingDB's records for PubMed 40053382 (Sapienza University of Rome)

What was measured:
[1] = Inhibition of HIV-1 Reverse transcriptase K103N/Y181C double mutant
[2] = Inhibition of HIV-1 Reverse transcriptase K103N mutant
[3] = Inhibition of HIV-1 Reverse transcriptase L100I/K103N double mutant

With Cc1cc(C#N)cc(C)c1Oc1nc(Nc2ccc(C#N)cc2)nc(N)c1Br the IC50 [1] was 4.3 nM, the IC50 [2] was 1.2 nM and the IC50 [3] was 19 nM.
